Measured values from several laboratories, pooled; numbers as filed in NIAID ChemDB.

Common to all: whole-cell or culture tests; agent: HIV-1; cell line: CEM; measure: EC50

ECn: concentration that inhibits the pathogen or its effect by n%.

smiles,strain,mutations,method,value
O=C(Nc1ccc(Br)cc1)c1ccccc1SSc1ccccc1C(=O)Nc1ccc(Br)cc1,-,-,XTT,17 µM
C[C@H](Cn1cnc2c(N)ncnc21)OCP(=O)(O)O,IIIB,-,syncytia,4.2 µM
CC(C)OC(=O)c1cc(NC(=S)OC(C)C)ccc1Cl,IIIB,-,syncytia,0.029 µM
CCCCCCC(=O)Oc1ccc(COP(=O)(OCc2ccc(OC(=O)CCCCCC)cc2)OP(=O)(O)OC[C@@H]2C=C[C@H](n3cc(C)c(=O)[nH]c3=O)O2)cc1,IIIB,-,syncytia / microscopy,0.47 µM
O=C(O)CNC(=O)c1ccccc1SSc1ccccc1C(=O)NCC(=O)O,-,-,XTT,51 µM
O=C1c2ccccc2C(=O)N1CC1C2CC3CC(C2)CC1C3,IIIB,-,syncytia,>4 µg/mL
COc1nc(N)c(N=C[C@@H](O)[C@@H](O)[C@H](O)CO)c(=O)n1C,-,-,cytopathic effect / XTT,64 µM
CC(C)CN(CC(O)CN(CC(C)C)S(=O)(=O)c1ccc(N)cc1)S(=O)(=O)c1ccccc1,IIIB,-,p24,<1 µM
Cc1occc1C(=S)Nc1ccc(Cl)c(/C=N/N(C)C)c1,HEPT-resistant (RT Y188L),RT-Y188L,syncytia,<2 µg/mL
COC(=O)C12CC3CC(C1)CC(N1C(=O)c4ccccc4C1=O)(C3)C2,IIIB,-,syncytia,>20 µg/mL
CCC1=C(C(=O)OCC2CCCCC2)[C@H](c2ccc(OC(=O)C(C)(C)C)cc2)NC(=O)N1,-,-,p24 / ELISA,≤1 µM
CCC(=O)c1ccc(NC(=O)c2ccccc2SSc2ccccc2C(=O)Nc2ccc(C(=O)CC)cc2)cc1,-,-,XTT,16 µM
COC(=S)Nc1ccc(Cl)c(C(=O)OC(C)C)c1,IIIB,-,syncytia,6.6 µM
O=C1c2ccccc2C(=O)N1CCCC12CC3CC(CC(C3)C1)C2,IIIB,-,syncytia,>4 µg/mL
Cc1ccc(C)c(CS(=O)(=O)c2cccc[n+]2[O-])c1,RF,-,syncytia,7.2 µg/mL
CC(C)CN(C[C@@H](O)[C@H](Cc1ccccc1)NC(=O)OC(C)(C)C)S(=O)(=O)c1ccc(F)cc1,IIIB,-,p24,<10 µM
COC(=O)[C@H](C)NP(=O)(OC[C@@H]1C=C[C@H](n2cnc3c(=O)[nH]c(N)nc32)C1)Oc1ccccc1,IIIB,-,syncytia,1.3 µM
COc1cc(Cc2cnc(/N=C3\C(=O)N(CN4CCN(c5cccc(C(F)(F)F)c5)CC4)c4ccc(C)cc43)nc2N)cc(OC)c1OC,-,-,cytopathic effect,>118 µM
O=[N+]([O-])c1ccc[n+]([O-])c1SCc1ccccc1,RF,-,syncytia,8.4 µg/mL
CCC1=C(C(=O)N(C)OC)C(c2cccc(O)c2)NC(=O)N1,-,-,p24 / ELISA,>5 µM
Cc1cc(S(=O)(=O)Nc2nnc3c(Cl)cc(C(F)(F)F)cn23)c(S)cc1Cl,RF,-,cytopathic effect / XTT,51.2 µM
C#CCOC(=O)c1cc(NC(=S)OC(C)C)ccc1Cl,-,RT-E138K,syncytia,19.24 µM
CSS[C@H]1C[C@H](n2cc(C)c(=O)[nH]c2=O)O[C@@H]1CO,IIIB,-,syncytia,10 µM
CC(C)=CCOc1cc(NC(=S)c2ccoc2C)ccc1Cl,IIIB,RT-Y188H,syncytia,0.012 µg/mL
CC(C)CN(C[C@H](O)C[C@@H](CN[C@H]1Cc2ccccc2[C@H]1O)Cc1ccccc1)S(=O)(=O)c1ccccc1,IIIB,-,p24,<1 µM
COc1cc(Cc2cnc(/N=C3\C(=O)N(CN4CCN(c5ccc(Cl)cc5)CC4)c4ccc(C)cc43)nc2N)cc(OC)c1OC,-,-,cytopathic effect,>36.1 µM
CC(C)OC(=S)Nc1ccc(Cl)c(C(=O)OCC(F)(F)F)c1,-,RT-V106A,syncytia,>28.11 µM
CN[C@@H]1[C@H](O[C@@H]2OC[C@@H](O)[C@H](O)[C@H]2O)[C@@H](O)[C@H](O[C@H]2c3cc(C)c(C(=O)N[C@H](C)C(=O)O)c(O)c3-c3c(cc4c(c3O)C(=O)c3cc(OC)cc(O)c3C4=O)[C@@H]2O)O[C@@H]1C,Mutant AH_1/#58,-,syncytia,5.1 µM
CC(C)CN(C[C@@H](O)[C@H](Cc1ccccc1)NC(=O)O[C@@H]1CCOC1)S(=O)(=O)c1ccoc1,IIIB,-,p24,<1 µM
C=Cc1nc2c(N)ncnc2n1[C@H]1CC[C@@H](CO)O1,-,-,cytopathic effect,>20 µg/mL
CCC1=C(CO)C(c2cccc(OC)c2)NC(=O)N1,-,-,p24 / ELISA,>5 µM
COc1ccc(S(=O)(=O)N(CC(C)C)C[C@@H](O)CCN(CC(C)C)S(=O)(=O)N(C)C)cc1,IIIB,-,p24,<1 µM
Cc1ccc(C)c(CS(=O)(=O)c2ccccn2)c1,IIIB,RT-K103N,syncytia,>20 µg/mL
CC(C)OC(=O)c1cc(NC(=S)OCC2CC2)ccc1Cl,-,RT-E138K,syncytia,6.1 µM
COc1cc(Cc2cnc(/N=C3\C(=O)N(CN4CCCC4)c4ccc(C)cc43)nc2N)cc(OC)c1OC,-,-,cytopathic effect,>122 µM
CCC1=C(C(=O)COC2CCCCC2)C(c2ccc(O)c(Cl)c2)NC(=O)N1,-,-,p24 / ELISA,>5 µM
COC(=O)c1cc(NC(=S)OC(C)C)ccc1Cl,-,RT-L100I,syncytia,20.85 µM
Cc1occc1C(=S)Nc1ccc(Cl)c(/C=N/OC(C)(C)C)c1,IIIB,-,syncytia,0.142 µM
Cc1cc(S(=O)(=O)Nc2nnc3cc(C(F)(F)F)cc(C)n23)c(S)cc1Cl,RF,-,cytopathic effect / XTT,39.1 µM
CCCCCCCCCC[N+](C)(C)CCCNCc1c(O)cc2c(c1O)-c1cc(ccc1O)[C@H]1NC(=O)[C@@H]3NC(=O)C4NC(=O)[C@@H](Cc5ccc(c(Cl)c5)Oc5cc3cc(c5O)Oc3ccc(cc3Cl)[C@@H](O)[C@H](NC1=O)C(=O)N[C@@H]2C(=O)O)NC(=O)[C@H](N)c1ccc(O)c(c1)Oc1cc(O)cc4c1,-,RT-Y188H,syncytia,6 µM
CCC1=C(Cc2ccccc2)C(c2cccc(OC)c2)NC(=O)N1,-,-,p24 / ELISA,>5 µM
CC1=CC=CC2C1=NC(c1cccnc1)N2Cc1c(F)cccc1F,-,-,-,31.6 µM
CCCCCOC(=S)Nc1ccc(Cl)c(C(=O)OC(C)C)c1,-,RT-Y181C,syncytia,17.45 µM
CC(C)(C)NC(=O)c1ccccc1SSc1ccccc1C(=O)NC(C)(C)C,-,-,XTT,58 µM
CCCCCCCCCCCCCC(=O)Oc1ccc(COP(=O)(OCc2ccc(OC(=O)CCCCCCCCCCCCC)cc2)OP(=O)(O)OC[C@@H]2C=C[C@H](n3cc(C)c(=O)[nH]c3=O)O2)cc1,IIIB,-,syncytia / microscopy,1.8 µM
CSc1ccc(NC(=S)OC(C)C)cc1C(=O)OC(C)C,-,RT-V106A,syncytia,18.32 µM
COc1cccc(N2CCN(CN3C(=O)/C(=N\c4ncc(Cc5cc(OC)c(OC)c(OC)c5)c(N)n4)c4cc(C)ccc43)CC2)c1,-,-,cytopathic effect,>11.9 µM
Nc1ccccc1C(=O)Nc1ccc(S(N)(=O)=O)cc1,-,-,XTT,>100 µM
CCOC(=O)N[C@@H](Cc1ccccc1)[C@H](O)CN(CC(C)C)S(=O)(=O)c1ccc(Cl)c(Cl)c1,IIIB,-,p24,<10 µM
C=CCOc1cc(NC(=S)OC(C)C)ccc1C#N,-,RT-L100I,syncytia,≥3.618 µM
Cc1ccc(S(=O)(=O)N(CC(C)C)C[C@@H](O)[C@H](Cc2ccccc2)NC(=O)O[C@@H]2CCOC2)cc1,IIIB,-,p24,<1 µM
COc1ccc(S(=O)(=O)N(CC[C@H](O)CN(CC(C)C)S(=O)(=O)c2ccc(OC)cc2)CC(C)C)cc1,IIIB,-,p24,<0.1 µM
CCCSC(=Nc1ccc(Cl)c(C(=O)OC(C)C)c1)OC(C)C,-,RT-Y181C,syncytia,>27.78 µM
Cc1ccc(C)c(CSc2c(Cl)ccc[n+]2[O-])c1,IIIB,RT-Y188H,syncytia,9.2 µg/mL
CC(C)OC(=S)Nc1ccc(Cl)c(C(=O)SC(C)C)c1,-,RT-Y181C,syncytia,1.808 µM
COc1ccc(S(=O)(=O)N(CC2CCCC2)C[C@@H](O)CN(CCc2ccccc2)C(=O)OCc2ccccc2)cc1,IIIB,-,p24,<1 µM
CCCCC(CC)COC(=O)c1cc(NC(=S)OC(C)C)ccc1Cl,-,RT-E138K,syncytia,19.4 µM
CCC1=C(C(O)c2ccccc2)C(c2cccc(OC)c2)NC(=O)N1,-,-,p24 / ELISA,>5 µM
CC(=O)OCCOC(=O)c1cc(NC(=S)OC(C)C)ccc1Cl,-,RT-Y181C,syncytia,≥27.79 µM
Cc1ccc(C)c(C(C)S(=O)(=O)c2ccc(C)c[n+]2[O-])c1,RF,-,syncytia,48 µg/mL
CC(C)CN(C[C@@H](O)[C@H](Cc1ccccc1)NC(=O)OCc1cccnc1)S(=O)(=O)c1ccc(F)cc1,IIIB,-,p24,<1 µM
CC(C)OC(=S)Nc1ccc(Cl)c(C(=O)OC(C(C)C)C(C)C)c1,-,RT-Y181C,syncytia,>2.689 µM
CC(C)CN(C[C@@H](O)[C@H](Cc1ccccc1)NC(=O)OC(C)(C)C)S(=O)(=O)c1ccc(F)cc1F,IIIB,-,p24,<10 µM
CC(C)(C)OC(=O)c1cc(NC(=S)OC(C)(C)C)ccc1Cl,-,RT-V106A,syncytia,29.08 µM
CCC(=O)C1=C(CCC2CCCCCC2)NC(=O)N[C@H]1c1ccc(O)c(Cl)c1,-,-,p24 / ELISA,>5 µM
CCOC(=O)c1cc(NC(=S)OC(C)C)ccc1SC,IIIB,-,syncytia,0.191 µM
COc1cc(Cc2cnc(/N=C3\C(=O)N(CN4CCN(c5ccccn5)CC4)c4ccc(C)cc43)nc2N)cc(OC)c1OC,-,-,cytopathic effect,>121 µM
CCOC(=O)COc1cc(NC(=S)OC(C)C)ccc1Cl,-,RT-V106A,syncytia,6.027 µM
CCCCCCCCCCCC(=O)Oc1ccc(COP(=O)(OCc2ccc(OC(=O)CCCCCCCCCCC)cc2)OP(=O)(O)OC[C@@H]2C=C[C@H](n3cc(C)c(=O)[nH]c3=O)O2)cc1,IIIB,-,syncytia / microscopy,0.16 µM
CC(C)OC(=O)c1cc(NC(=S)SC(C)C)ccc1Cl,-,RT-Y181C,syncytia,>30.13 µM
O=C(c1ccccc1)N(CCc1ccccc1)C[C@H](O)CN(CC1CCCC1)S(=O)(=O)c1nccs1,IIIB,-,p24,<1 µM
CC(C)OC(=S)Nc1ccc(Cl)c(C(=O)OC2(C)COC2)c1,-,RT-L100I,syncytia,2.036 µM
COC(=O)[C@H](C)NP(=O)(OC[C@@H]1C=C[C@H](n2cnc3c(NC4CC4)nc(N)nc32)C1)Oc1ccccc1,IIIB,-,syncytia,0.05 µM

Again, the opening 8 rows:

smiles | strain | mutations | method | value
O=C(Nc1ccc(Br)cc1)c1ccccc1SSc1ccccc1C(=O)Nc1ccc(Br)cc1 | - | - | XTT | 17 µM
C[C@H](Cn1cnc2c(N)ncnc21)OCP(=O)(O)O | IIIB | - | syncytia | 4.2 µM
CC(C)OC(=O)c1cc(NC(=S)OC(C)C)ccc1Cl | IIIB | - | syncytia | 0.029 µM
CCCCCCC(=O)Oc1ccc(COP(=O)(OCc2ccc(OC(=O)CCCCCC)cc2)OP(=O)(O)OC[C@@H]2C=C[C@H](n3cc(C)c(=O)[nH]c3=O)O2)cc1 | IIIB | - | syncytia / microscopy | 0.47 µM
O=C(O)CNC(=O)c1ccccc1SSc1ccccc1C(=O)NCC(=O)O | - | - | XTT | 51 µM
O=C1c2ccccc2C(=O)N1CC1C2CC3CC(C2)CC1C3 | IIIB | - | syncytia | >4 µg/mL
COc1nc(N)c(N=C[C@@H](O)[C@@H](O)[C@H](O)CO)c(=O)n1C | - | - | cytopathic effect / XTT | 64 µM
CC(C)CN(CC(O)CN(CC(C)C)S(=O)(=O)c1ccc(N)cc1)S(=O)(=O)c1ccccc1 | IIIB | - | p24 | <1 µM

Neighbouring rows are from separate reports. Blank or dashed fields: not listed here.